Consider one molecule from patent US20140086927A1 (priority 2012, published 2014).

In this assay the test system is HA of H3N2. It is filed as binding, Influenza A virus H3N2 (Aic68, Fuk85).

B1: F005-126: human IgG antibody broadly neutralizing H3N2 viruses; heavy chain SEQ ID NO: 2, light chain SEQ ID NO: 13 (antibody)
heavy: QVQLVQSGAEVKKPGASVTVSCQVSGYTLTSYGLSWVRQAPGQGLEWVGWINTYDGQTKYVKKFQGRVTMTTHTGTNTAYMEMKSLRSDDTAVYYCARVEGVRGVMGFHYYPMDVWGQGTMVTVSSASTKGPSVFPLAPSSKSTSGGTAALGCLVKDYFPEPVTVSWNSGALTSGVHTFPAVLQSSGLYSLSSVVTVPSSSLGTQTYICNVNHKPSNTKVDKKV[not shown - human IgG1 Fc with changes]
light: QSVLTQPPSVSGAPGQRVTISCTGSSSNIGAGYAVHWYQQLPGTAPKLLISGNSNRPSGVPDRFSGSKSGTSASLAITGLQAEDEADYYCQSYDSSLSGSVFGGGTKLTVLGQPKAAPSVTLFPPSSEELQANKATLVCLISDFYPGAVTVAWKADSSPVKAGVETTTPSKQSNNKYAASSYLSLTPEQWKSHRSYSCQVHEGSTVEKTVAPTECSARQ
In the case of B1, the “binding to truncated HA Fuk85HA39-319 expressed on cells” value is “bound to Fuk85HA39-319 although weakly” and the “binding to truncated HA Fuk85HA44-309 expressed on cells” value was “not to Fuk85HA44-309”.
